B1: M1: Taq mutant G84A, D144G, K314R, E520G, F598L, A608V, E742G; SEQ ID NO: 1 (protein)
chain: MRGMLPLFEPKGRVLLVDGHHLAYRTFHALKGLTTSRGEPVQAVYGFAKSLLKALKEDGDAVIVVFDAKAPSFRHEAYGGYKAARAPTPEDFPRQLALIKELVDLLGLARLEVPGYEADDVLASLAKKAEKEGYEVRILTADKGLYQLLSDRIHVLHPEGYLITPAWLWEKYGLRPDQWADYRALTGDESDNLPGVKGIGEKTARKLLEEWGSLEALLKNLDRLKPAIREKILAHMDDLKLSWDLAKVRTDLPLEVDFAKRREPDRERLRAFLERLEFGSLLHEFGLLESPKALEEAPWPPPEGAFVGFVLSRREPMWADLLALAAAAGGRVHRAPEPYKALRDLKEARGLLAKDLSVLALREGLGLPPGDDPMLLAYLLDPSNTTPEGVARRYGGEWTEEAGERAALSERLFANLWGRLEGEERLLWLYREVERPLSAVLAHMEATGVRLDVAYLRALSLEVAEEIARLEAEVFRLAGHPFNLNSRDQLERVLFDELGLPAIGKTEKTGKRSTSAAVLGALREAHPIVEKILQYRELTKLKSTYIDPLPDLIHPRTGRLHTRFNQTATATGRLSSSDPNLQNIPVRTPLGQRIRRAFIAEEGWLLVVLDYSQIELRVLAHLSGDENLIRVFQEGRDIHTETASWMFGVPREAVDPLMRRAAKTINFGVLYGMSAHRLSQELAIPYEEAQAFIERYFQSFPKVRAWIEKTLEEGRRRGYVETLFGRRRYVPDLEARVKSVRGAAERMAFNMPVQGTAADLMKLAMVKLFPRLEEMGARMLLQVHDELVLEAPKERAEAVARLAKEVMEGVYPLAVPLEVEVGIGEDWLSAKE
modifications: Mutant Thermus aquaticus DNA polymerase

Test system: HIV pol (38% GC), Taq (68% GC) PCR targets
Test: Mutation spectrum in PCR by sequencing of cloned products
Assay type: biochemical
Details: for total substitutions observed in PCR fragments: PCR fragments amplified with the polymerase, FIG. 22B; for Mutation spectrum in PCR: Transitions AT->GC (number of mutations) / Mutation spectrum in PCR: Transitions GC->AT (number of mutations) / Mutation spectrum in PCR: Transversions AT->CG (number of mutations) / Mutation spectrum in PCR: Transversions AT->TA (number of mutations) / Mutation spectrum in PCR: Transversions GC->CG (number of mutations) / Mutation spectrum in PCR: Transversions GC->TA (number of mutations) / Mutation spectrum in PCR: Deletions (number): sequencing of 40 clones (800 bp) each; for Mutation spectrum in PCR: Deletions (number): −1 deletions

Row | Molecule | total substitutions observed in PCR fragments | Mutation spectrum in PCR: Transitions AT->GC (number of mutations) | Mutation spectrum in PCR: Transitions GC->AT (number of mutations) | Mutation spectrum in PCR: Transversions AT->CG (number of mutations) | Mutation spectrum in PCR: Transversions AT->TA (number of mutations) | Mutation spectrum in PCR: Transversions GC->CG (number of mutations) | Mutation spectrum in PCR: Transversions GC->TA (number of mutations) | Mutation spectrum in PCR: Deletions (number)
1 | wtTaq: Thermus aquaticus (Taq) wild type DNA polymerase [reference compound] | 48 | 25 | 9 | 2 | 8 | 1 | 3 | 3
2 | B1 | 74 | 25 | 16 | 4 | 15 | 10 | 5 | 1

Reference: patent US9096835B2, “DNA polymerase” (Medical Research Council, priority 2003, dated 2015)
